Key:
[1] = tested on: Nc1ncnc2c1ncn2[C@@H]1O[C@H](COP(=O)(O)OP(=O)(O)OP(=O)(O)O)[C@@H](O)[C@H]1O; test: purified protein; conditions: pH 7.5
[2] = tested on: O=P(O)(O)O[C@@H]1O[C@H](CO)[C@@H](O)[C@H](O)[C@H]1O; test: purified protein; conditions: pH 7.5

Substance: BpHldC (Burkholderia pseudomallei K96243)
- K0.5 [1]: 0.23 ± 0.02 mM
- K0.5 [2]: 0.68 ± 0.07 mM

— publication PMC7993394 (Journal of Enzyme Inhibition and Medicinal Chemistry, 2021)
